Measurements published in patent US20220363736A1 (ICAHN SCHOOL OF MEDICINE AT MOUNT SINAI, published 2022).

B1: monoclonal antibody 4F11 (hybridoma-produced, murine IgG2b) (antibody, V domains shown)
VH: DVKLVESGGDLVKPGGSLKLSCAASGFTFSAYSMSWVRQTPERRLEWVATINTGGSFTYYPDSVKGRFTISRDNAKNTLYLQMSSLKSEDTAMYFCTRVSDYGNSAYFPYWGQGTLVIVFA
VL: QVVLTQSPALISASPGEKVTMTCSASSNVNYMSWYQQRPRSSPKPWIYLTSKLASGVPPRFSGSGSGTSYSLTISSMEAEDVATYYCQQWSSDPQTFGGGTKVEIK
B2: monoclonal antibody 1F4 (hybridoma-produced, murine IgG2a) (antibody, V domains shown)
VH: QVHLQQSGSELRSPGSSVKLSCKDFDSEVFPIVYMRWIRQKPGHGFEWIGDILPSFGRTIYGEKFEDKATLDADTVSNTAYLELNSLTSEDSAIYYCARGDHGNWLAYWGQGTLVTVSA
VL: DIVMTQSHKFMSTSVGDRVTITCKASQDVSTNVAWYQQKPGQSPKLLIYWASTRHTGVPNRFTGIISGTDYTLTISSVQAEDRALYYCQQHYSAPWTFGGGTKLEIK
B3: monoclonal antibody 4B2 (hybridoma-produced, murine IgG2a) (antibody, V domains shown)
VH: QIQLVQSGPELKKPGETVKISCKASGFTFTDYPMHWVKQAPGKSLKWMGWINTETEEPTYSDDFKGRSPLSLETSASTTYLQINNLKNEDTSTYFCVRSGYYYGSTYAWFGYWGQGTLVTVSA
VL: DVVMTQIPLSLPVSLGDQASISCRSSQSLIHTNGDTFLHWYLQKPGQSPKLLIYKVSNRFSGVPDRFTGGGSGTDFTLKISRVEAEDLGIYFCSQSALFPYTFGGGTNLEIK
B4: monoclonal antibody 3G1 (hybridoma-produced, murine IgG2a) (antibody, V domains shown)
VH: QVQLQQSGAELMKPGASVKISCKATGYKFTSYWIGWVKQRPGHGLEWCGEIFPGSGSINYNEKFKGKATFTADTSSNTAYLQLTSLTSEDSAVYYCARGEDYYGSSYGAMDYWGQGTSLTVSS
VL: DVQITQSPSYLAASPGETITINCRASKSISKYVAWYQEKPGRTNKVLIYSGSILSFGNPSRFSGSGSGTDFTLTISSLEPEDFAMYYCQQHNEYPWTFGGGTKLEIK

The binders below were run against recombinant neuraminidase (rNA) from B/Malaysia/2506/04 (influenza B virus B/Malaysia/2506/04) (assay: biolayer interferometry (Octet Red96), […]).
Binder B1 has a Kd of 152 pM and a koff of 3.76e-05 s⁻¹. Work on B2 yielded a Kd of 819 pM and a koff of 4.25e-05 s⁻¹. Binder B3 has a Kd of 1750 pM and a koff of 0.000364 s⁻¹. Work on B4 yielded a Kd of 532 pM and a koff of 0.000255 s⁻¹.
